Compound potency records, mixed from different reports. Data source: NIAID ChemDB in PubChem.

All rows: tests in culture; organism: Mycobacterium tuberculosis

ECn: concentration that inhibits the pathogen or its effect by n%.

SMILES	cell line	mutations	endpoint	conditions	strain	method	dose	result
O=C1CN(/N=C/c2ccco2)C(=O)N1			MIC bound		H37Rv	BACTEC		>12.5 µg/mL
Cc1ccc2c(c1)C(=O)N(NC(=O)c1ccc(-n3c(C)ccc3C)cc1)C2=O			MIC		H37Rv	resazurin		6.25 µM
COc1cc(Cc2cnc(/N=C3\C(=O)N(CN4CCCC4)c4ccc(F)cc43)nc2N)cc(OC)c1OC			EC50		H37Rv			>6.25 µg/mL
Cc1cc(C(=O)/C=C/c2ccc(F)cc2)ccc1O			MIC		H37Rv			>6.25 µg/mL
CCn1cc(C(=O)O)c(=O)c2cc(F)c(N3CCN(CN4C(=O)/C(=N\c5ncc(Cc6cc(OC)c(OC)c(OC)c6)c(N)n5)c5cc(F)ccc54)C(C)C3)c(F)c21			inhibition		H37Rv		6.25 µg/mL	100%
CCN(CC)CCCC(C)Nc1nccc(/C=C/c2ccc(Cl)cc2)n1			inhibition		H37Rv	resazurin	6.25 µg/mL	67%
NC(=O)c1cnccn1			MIC		Isolate 98-34			900 µg/mL
CO[C@H]1/C=C/O[C@@]2(C)Oc3c(C)c(O)c4c(O)c(c(/C=N/N5CCN(C)CC5)c(O)c4c3C2=O)NC(=O)/C(C)=C\C=C\[C@H](C)[C@H](O)[C@@H](C)[C@@H](O)[C@@H](C)[C@H](OC(C)=O)[C@@H]1C			MIC		M8	resazurin		>2 µg/mL
CCCCCCCCCCCCCCCCNCc1cccnc1			MIC		Clinical isolates MDR			3.12 µg/mL
CCCCCCCCc1ccc(NC(=O)c2cc(Cl)ccc2O)cc1			MIC		My 331/88			4 µM
COc1ccc(-c2csc(-n3cccc3)n2)cc1			MIC		H37Rv	resazurin		12.5 µg/mL
O=C(Oc1ccc(Cl)cc1C(=O)Nc1cccc(Cl)c1)c1ccccc1			MIC	14 d	331/88 (H37Rv)	broth dilution		2 µM
Cc1cc(C(=O)/C=C/c2ccc(Cl)cc2)ccc1O			MIC		H37Rv			>6.25 µg/mL
COc1cc2oc3cc(O)c(CCC(C)C)c(O)c3c(=O)c2c(CCC(C)C)c1OC			MIC		M16	resazurin		3.12 µg/mL
Cc1ccc(C)n1-c1ccc(C(=O)NN2C(=O)c3cc(Cl)c(Cl)cc3C2=O)cc1			MIC		H37Rv	resazurin		0.8 µg/mL
COc1cc(Cc2cnc(/N=C3\C(=O)N(CN4CCN(C)CC4)c4ccc(F)cc43)nc2N)cc(OC)c1OC			inhibition		H37Rv		6.25 µg/mL	24%
Cc1cc2oc(=O)c(C3=NNC(c4ccccc4-c4ccccn4)C3)c(O)c2cc1C			MIC90		H37Rv	agar		>6.25 µg/mL
Clc1nc(-c2cccs2)c2ncn(Cc3ccccc3)c2n1			EC50		H37Rv	BACTEC		<12.5 µg/mL
COc1ccc2c(c1)-c1c3c(cc4ccnc(c14)C2=O)OCO3			MIC bound		H37Rv	BACTEC		≤12.5 µg/mL
COc1ccc(/C=C/C(=O)c2ccc(O)c(C)c2)cc1OC			MIC		H37Rv			>6.25 µg/mL
COc1cc(Cc2cnc(/N=C3\C(=O)N(CN4CCN(c5cccc(Cl)c5)CC4)c4ccc(F)cc43)nc2N)cc(OC)c1OC			EC50		H37Rv			>6.25 µg/mL
C=Cc1nc2c(Cl)ncnc2n1Cc1ccccc1			EC50		H37Rv	BACTEC		>12.5 µg/mL
C=C(C)[C@@H]1CC[C@]2(C(=O)O)CC[C@]3(C)C(CCC4[C@@]5(C)CC[C@H](OC(=O)/C=C/c6ccc(O)c(O)c6)C(C)(C)C5CC[C@]43C)C12			MIC		H37Ra	resazurin		200 µg/mL
Cl.NC(=S)NNC(=O)c1cccnc1			MIC bound		H37Rv	BACTEC		>12.5 µg/mL
CCCCc1ccc(NC(=O)c2cc(Cl)ccc2O)cc1			MIC		My 331/88			4 µM
COc1cccc(C2CC(c3c(O)c4cc(C)c(C)cc4oc3=O)=NN2c2ccccc2)c1O		Isoniazid-resistant	MIC90		INHR-MTB	agar		>6.25 µg/mL
O=C(Oc1ccc(Cl)cc1C(=O)Nc1ccc(C(F)(F)F)cc1)c1ccccc1			MIC	21 d	Praha 1	broth dilution		0.5 µM
CSc1ncnc2c1cnn2Cc1cn(COC[C@@H](O)CO)nn1			EC50		H37Rv	BACTEC		>12.5 µg/mL
COc1ccc(/C=C/C(=O)O[C@H]2CC[C@@]3(C)C(CC[C@]4(C)C3CC=C3C5CC(C)(C)CC[C@]5(C(=O)O)CC[C@]34C)C2(C)C)cc1			MIC		H37Ra	resazurin		200 µg/mL
COc1cc(Cc2cnc(/N=C3\C(=O)N(CN4CCN(c5ccccc5)CC4)c4ccc(F)cc43)nc2N)cc(OC)c1OC			inhibition		H37Rv		6.25 µg/mL	33%
CC(C)N.CC(C)N(C(=S)S)C(C)C			MIC bound		H37Rv	BACTEC		≤128 µg/mL
COc1c(O)cc2oc3cc(O)c(CCC(C)C)c(O)c3c(=O)c2c1CCC(C)C		MDR	MIC		M16	resazurin		3.12 µg/mL
COc1cc(CNC2CC2)ccc1O			MIC		Sensitive strains			12.5 µg/mL
Clc1nc(/C=C/c2ccccc2)c2ncn(Cc3ccccc3)c2n1			EC50		H37Rv	BACTEC		<12.5 µg/mL
COc1ccc(-c2csc(-n3cccc3)n2)cc1OC			MIC		H37Rv	resazurin		50 µg/mL
Clc1ncnc2c1nc(I)n2Cc1ccccc1			EC50		H37Rv	BACTEC		>12.5 µg/mL
O=[N+]([O-])c1ccc(/C=C/c2cc(N(CCO)CCO)c3ccccc3n2)cc1			inhibition		H37Rv	resazurin	6.25 µg/mL	2%
COc1cc(/C=C/C(=O)O[C@H]2CC[C@@]3(C)C(CC[C@]4(C)C3CC=C3C5CC(C)(C)CC[C@]5(C(=O)O)CC[C@]34C)C2(C)C)ccc1OC(C)=O			MIC		H37Ra	resazurin		50 µg/mL
C[C@H]1COc2c(N3CCN(C)CC3)c(F)cc3c(=O)c(C(=O)O)cn1c23		INH RIF resistant	MIC		Clinical isolate 71 A	resazurin		0.25 µg/mL
COc1ccc2c(c1)[n+]([O-])c(-c1ccccc1)c(N)[n+]2[O-]			MIC		TAC-R			6.3 µg/mL
CCCCCCCCc1ccc(NC(=O)c2cc(Br)ccc2O)cc1			MIC		My 331/88			4 µM
Oc1ccc(-c2csc(-n3cccc3)n2)cc1			MIC		H37Rv	resazurin		50 µg/mL
COc1cc(Cc2cnc(/N=C3\C(=O)N(CN4CCN(c5cc6c(cc5F)c(=O)c(C(=O)O)cn6C5CC5)CC4)c4ccc(F)cc43)nc2N)cc(OC)c1OC			EC50		H37Rv			<6.25 µg/mL
Cc1cc2nc(Oc3ccccc3)nc(=O)n2o1			MIC bound		H37Rv	resazurin		>6.25 µg/mL
CC(=O)Oc1cc2oc3cc(OC(C)=O)c(C(C)=O)c(CCC(C)C)c3c(=O)c2c(O)c1CCC(C)C			MIC		H37Ra	resazurin		3.12 µg/mL
Cc1cc(C(=O)/C=C/c2ccco2)ccc1O			inhibition		H37Rv		6.25 µg/mL	73%
COC(=O)C1CC23CC45CC6C(C)CN(CC7CC(OC(C)=O)(CC8=C2C1CC8)CC73C4OC(C)=O)C65O			inhibition		H37Rv	BACTEC	12.5 µg/mL	11%
O=C(Oc1ccc(Cl)cc1C(=O)Nc1ccc(Br)cc1)c1ccccc1			MIC	21 d	331/88 (H37Rv)	broth dilution		2 µM
CC(O)C1(O)C(O)CC(OC2c3cc4c(c(O)c3[C@@H]3C[C@@]2(C)OC32C=c3cc[nH]c3=N2)C(=O)c2cccc(O)c2C4=O)OC1C			MIC		PAS-R			0.8 µg/mL
O=c1[nH]cnc2c1cnn2Cc1cn(COC[C@@H](O)CO)nn1			EC50		H37Rv	BACTEC		>12.5 µg/mL
CCCCNC(CC(=O)OCC)c1cccc(Cl)c1			MIC		H37Ra			>25 µg/mL
C[C@H]1COc2c(N3CCN(C)CC3)c(F)cc3c(=O)c(C(=O)O)cn1c23			MIC90		22 strains (rifampicin-susceptible)			0.39 µg/mL
Cc1cc(C2=NNC(c3cccc([N+](=O)[O-])c3)C2)ccc1O			MIC		H37Rv			>6.25 µg/mL
CCCCNC(CC(=O)OCC)c1cccc([N+](=O)[O-])c1			MIC		H37Ra			>25 µg/mL
O=c1oc2ccccc2c(O)c1C1=NN(c2ccccc2)C(c2ccc(O)cc2O)C1		Isoniazid-resistant	MIC90		INHR-MTB	agar		>6.25 µg/mL
CNc1ncnc2c1cnn2Cc1cn(COC[C@@H](O)CO)nn1			inhibition		H37Rv	BACTEC	12.5 µg/mL	0%
Nc1ccc(S(N)(=O)=O)cc1SSc1cc(S(N)(=O)=O)ccc1N			MIC bound		H37Rv	BACTEC		>12.5 µg/mL
CO[C@H]1/C=C/O[C@@]2(C)Oc3c(C)c(O)c4c(O)c(c(/C=N/N5CCN(C6CCCC6)CC5)c(O)c4c3C2=O)NC(=O)/C(C)=C\C=C\[C@H](C)[C@H](O)[C@@H](C)[C@@H](O)[C@@H](C)[C@H](O)[C@@H]1C			MBC		Atencio			1 µg/mL
Cc1cc(C2=NNC(c3ccc(F)cc3)C2)ccc1O			MIC		H37Rv			>6.25 µg/mL
O=C(Oc1ccc(Br)cc1C(=O)Nc1ccc(C(F)(F)F)cc1)c1ccccc1			MIC	14 d	331/88 (H37Rv)	broth dilution		1 µM
Cc1ccc(C)n1-c1ccc(C(=O)NN2C(=O)[C@H]3CCCC[C@H]3C2=O)cc1			MIC		H37Rv	resazurin		6.25 µg/mL
Cn1cc(NC(=O)c2cc(NC(=O)CN=C(N)N)cn2C)cc1C(=O)NCCC(=N)N	VERO		MIC		H37Rv	resazurin		1.56 µg/mL
O=C(Oc1ccc(Cl)cc1C(=O)Nc1ccc(Cl)c(Cl)c1)c1ccccc1			MIC	21 d	234/2005	broth dilution		0.5 µM
Cc1c(CCNC=O)cc(C)c2c3c(oc12)CCCC3			inhibition		H37Rv	BACTEC	12.5 µg/mL	57%
COc1cc2c3c(cc4cc5c(cc4c3c1OC)OCO5)N(C=O)CC2			MIC		H37RvEr	resazurin		>50 µg/mL
CN(C)c1ccc(Nc2c3ccccc3nc3ccccc23)cc1			inhibition		H37Rv	resazurin	6.25 µg/mL	9%
Cc1cc2oc(=O)c(C3=NNC(c4ccc(C(F)(F)F)cc4)C3)c(O)c2cc1C		Isoniazid-resistant	MIC90		INHR-MTB	agar		>6.25 µg/mL
CCCCCCCCCCCCNC(CCO)c1cccc([N+](=O)[O-])c1			MIC		Sensitive strains			12.5 µg/mL
Nc1nc(-n2cc(C(=O)O)c(=O)c3cc(F)c(N4CC(O)C4)c(Cl)c32)c(F)cc1F			MIC90		22 strains (rifampicin-susceptible)			0.78 µg/mL
Clc1nc2c(-c3ccccc3)ncnc2n1Cc1ccccc1			EC50		H37Rv	BACTEC		<12.5 µg/mL
NNC(=O)c1ccncc1			MIC		H37Ra	resazurin		0.06 µg/mL
C/C=C(\C)C(=O)OC1C(C)=C2C(C1OC(=O)CCCC)C(C)(OC(C)=O)CC(OC(=O)CCCC)C1(O)C2OC(=O)C1(C)O			MIC bound		H37Rv	BACTEC		>12.5 µg/mL
CCCCCCCCNC(CC(=O)OCC)c1cccc(Cl)c1			MIC		H37Ra			>25 µg/mL
Nc1ccc(C(=O)N/C(=C\C=C\c2ccco2)c2nc3c4c(ccc3[nH]2)C(=O)c2ccccc2C4=O)cc1			MIC bound		H37Rv	resazurin		>6.25 µg/mL
CCOc1cc2oc3cc(O)c(CCC(C)C)c(O)c3c(=O)c2c(CCC(C)C)c1OC			MIC		H37Rv	resazurin		1.56 µg/mL
C=CCOC(Cn1ccnc1)c1ccc(Cl)cc1Cl			inhibition		H37Rv	resazurin	6.25 µg/mL	93%
CCCCCCCc1ccc(NC(=O)c2ccc(Cl)cc2O)cc1			MIC		My 331/88			8 µM
Cc1ccc(-c2cc(-c3ccco3)c(C#N)c(=O)n2[C@@H]2O[C@H](CO)[C@@H](O)[C@H](O)[C@H]2O)cc1			inhibition		H37Rv	BACTEC	12.5 µg/mL	0%
COc1cc(/C=C/C(=O)O[C@H]2CC[C@@]3(C)C(CC[C@]4(C)C3CC=C3C5[C@@H](C)[C@H](C)CC[C@]5(C(=O)O)CC[C@]34C)C2(C)C)ccc1OC(C)=O			MIC		H37Ra	resazurin		3.13 µg/mL
O=C(Nc1nnc(-c2coc3ccccc3c2=O)s1)c1ccccc1			inhibition		H37Rv	BACTEC	12.5 µg/mL	0%
COc1cc2c3c(c1OC)-c1cc4c(cc1CC3N(C=O)CC2)OCO4			MIC		MTY147	resazurin		>50 µg/mL
COc1ccc2c(C)cc(N/N=C/c3ccccc3)nc2c1			inhibition		H37Rv	BACTEC	12.5 µg/mL	80%
CSc1ncnc2c1cnn2Cc1cnnn1COC[C@H](O)CO			EC50		H37Rv	BACTEC		>12.5 µg/mL

Repeating the final 11 entries:

SMILES	cell line	mutations	endpoint	conditions	strain	method	dose	result
CCCCCCCCNC(CC(=O)OCC)c1cccc(Cl)c1			MIC		H37Ra			>25 µg/mL
Nc1ccc(C(=O)N/C(=C\C=C\c2ccco2)c2nc3c4c(ccc3[nH]2)C(=O)c2ccccc2C4=O)cc1			MIC bound		H37Rv	resazurin		>6.25 µg/mL
CCOc1cc2oc3cc(O)c(CCC(C)C)c(O)c3c(=O)c2c(CCC(C)C)c1OC			MIC		H37Rv	resazurin		1.56 µg/mL
C=CCOC(Cn1ccnc1)c1ccc(Cl)cc1Cl			inhibition		H37Rv	resazurin	6.25 µg/mL	93%
CCCCCCCc1ccc(NC(=O)c2ccc(Cl)cc2O)cc1			MIC		My 331/88			8 µM
Cc1ccc(-c2cc(-c3ccco3)c(C#N)c(=O)n2[C@@H]2O[C@H](CO)[C@@H](O)[C@H](O)[C@H]2O)cc1			inhibition		H37Rv	BACTEC	12.5 µg/mL	0%
COc1cc(/C=C/C(=O)O[C@H]2CC[C@@]3(C)C(CC[C@]4(C)C3CC=C3C5[C@@H](C)[C@H](C)CC[C@]5(C(=O)O)CC[C@]34C)C2(C)C)ccc1OC(C)=O			MIC		H37Ra	resazurin		3.13 µg/mL
O=C(Nc1nnc(-c2coc3ccccc3c2=O)s1)c1ccccc1			inhibition		H37Rv	BACTEC	12.5 µg/mL	0%
COc1cc2c3c(c1OC)-c1cc4c(cc1CC3N(C=O)CC2)OCO4			MIC		MTY147	resazurin		>50 µg/mL
COc1ccc2c(C)cc(N/N=C/c3ccccc3)nc2c1			inhibition		H37Rv	BACTEC	12.5 µg/mL	80%
CSc1ncnc2c1cnn2Cc1cnnn1COC[C@H](O)CO			EC50		H37Rv	BACTEC		>12.5 µg/mL

Neighbouring rows are from separate reports. A number after MIC or MFC names an inhibition level or a share of isolates. Percent inhibition refers to the dose given; in toxicity tests it is the harm to the cells. An empty or dashed field is not shown. MIC bound: limit read from a one-dose screen.